Pooled drug test results. Numbers come from NIAID ChemDB, via PubChem.

All rows: whole-cell or culture tests; organism: HIV-1; endpoint: EC50

An empty or dashed field is not shown. ECn is the concentration giving n% inhibition of infection, replication or growth. a–b is a range or a potency band. Conditions beyond the fields shown may differ between rows.

SMILES | cells | changes | method | strain | result
CC(C)C1=C2[C@H]3CC[C@@H]4[C@@]5(C)CC[C@H](OC(=O)[C@H]6C[C@@H](C(=O)O)C6(C)C)C(C)(C)[C@@H]5CC[C@@]4(C)[C@]3(C)CC[C@@]2(CCN(CCN(C)C)Cc2ccccc2Cl)CC1=O | MT-2 |  | p24 / ELISA | 92HT599 | <1 µM
N#Cc1cc(Cl)cc(Oc2c(Br)ccc(CC(=O)Nc3ccc(S(N)(=O)=O)cc3Cl)c2F)c1 | MT-4 | M230L |  |  | 0.0006 µM
COc1cnc(-c2ccc(S(C)(=O)=O)cc2)c2[nH]cc(C(=O)C(=O)N3CCC(=C(C#N)c4ccccn4)CC3)c12 | HeLa |  | luciferase |  | <1 µM
C[C@@H]1O[C@H]2O[C@H]3[C@@H](OC[C@@H](O)[C@@H]3O)OC(=O)[C@]34CCC(C)(C)C[C@@]3(C)C3=CC[C@@]5(C)[C@@](C)(CC[C@@H]6[C@](C)(CO)[C@@H](O[C@@H]7O[C@H](CO)[C@@H](O)[C@H](O)[C@H]7O[C@@H]7O[C@@H](C(=O)C[C@](C)(O)CC(=O)O[C@@H]1[C@@H](O[C@@H]1OC[C@@H](O)[C@H](O)[C@H]1O)[C@H]2O)[C@H](O)[C@H](O)[C@H]7O)[C@@H](O)C[C@@]65C)[C@]3(C)CC4 | H9 |  | absorbance | IIIB | 22.9 µg/mL
O=C(NCc1ccc(F)cc1)c1nc2n(c(=O)c1O)CCCOC21CCN(C(=O)OCc2ccccc2)CC1 | MT-2 |  | luciferase / reporter gene | NL4-3 | 0.01–0.1 µM
CCO[C@]12CS(=O)(=O)O[C@@]13C(CN2)O[C@@H](n1cc(C)c(=O)[nH]c1=O)[C@@H]3O[Si](C)(C)C(C)(C)C | MT-4 |  |  | IIIB | 13.8 µM
CN(C)S(=O)(=O)N1CCC2(CC1)COCCn1c2nc(C(=O)NCc2ccc(F)cc2)c(O)c1=O | MT-2 |  | luciferase / reporter gene | NL4-3 | 0.01–0.1 µM
COc1cnc(-c2cncnc2)c2[nH]cc(C(=O)C(=O)N3CCC(=C(C#N)c4ccccc4)CC3)c12 | HeLa |  | luciferase |  | <1 µM
COc1cc2ccnc(CN(CCCCN)Cc3ncccc3C)c2cc1OC | Jurkat cells |  | flow cytometry |  | 0.0032 µM
Cc1cn([C@H]2C[C@H](NC(=O)C(F)(F)F)[C@@H](CO)O2)c(=O)[nH]c1=O | MT-4 |  | ELISA / antigen | IIIB | >1 µM
CC(C)CN(C[C@@H](O)[C@H](Cc1ccccc1)NC(=O)O[C@H]1CO[C@H]2OCC[C@H]21)S(=O)(=O)c1ccc(N)c(NCCc2cncn2CC(C)C)c1 | MT-4 |  | GFP | IIIB WT | 0.288 µM
C[C@@H]1CCO[C@H]2Cn3cc(C(=O)NCc4ccc(F)cc4F)c(=O)c(O)c3C(=O)N12 | TZM-bl |  | single cycle | NL4-3 | 0.00008 µM
CC(C)CN(C[C@@H](O)[C@H](Cc1ccccc1)NC(=O)O[C@H]1CO[C@H]2OCC[C@H]21)S(=O)(=O)c1ccc(N)c(NCc2cccc(F)c2)c1 | MT-4 |  | GFP | IIIB WT | 0.00129 µM
CNC(=O)NC[C@H]1O[C@@H](n2cnc3c(NC(=O)Nc4ccccc4)ncnc32)[C@H](O)[C@@H]1CC(=O)O | MT-2 |  | cytopathic effect / neutral red | LAI | >98 µM
CN1c2ccccc2C2C1C=C(C#N)C(=O)N2c1ccc([N+](=O)[O-])cc1 | HeLa |  | GFP / fluorescence | 4755-5 | 0.02 µM
[2H]C(CCCN)(NC(=O)c1ccc(Cl)cc1)C(=O)NC[C@H](O)[C@@]12CC[C@]3(C)[C@H](CC[C@@H]4[C@@]5(C)CC[C@H](OC(=O)[C@H]6C[C@@H](C(=O)O)C6(C)C)C(C)(C)[C@@H]5CC[C@]43C)C1=C(C(C)C)C(=O)C2 | MT-2 |  | p24 / ELISA | 92HT599 | <1 µM
COc1cnc(-n2cnc(C)n2)c2[nH]cc(C(=O)C(=O)N3CCC(=C(c4ccccc4)c4cnn(C)c4)CC3)c12 | HeLa |  | luciferase |  | <1 µM
CC1(C)CC=C(c2cn(-c3nccc(C(=O)NC4CCC(N5CC6CCC(C5)O6)CC4)n3)c3ccc(F)c([C@H](OC(C)(C)C)C(=O)O)c23)CC1 | H9 |  | luminescence | IIIB | 0.0023 µM
COc1ncn(-c2ncc(OC)c3c(C(=O)C(=O)N4CCn5c(nnc5-c5ccccc5)C4)c[nH]c23)n1 | HeLa CD4 | nef | luciferase / single cycle |  | <0.5 µM
CC(C)CN(C[C@@H](O)[C@H](Cc1cc(F)cc(F)c1)NC(=O)O[C@H]1C2CO[C@H]3OCC1C3C2)S(=O)(=O)c1ccc2nc(NC3CC3)sc2c1 | MT-4 |  | p24 / luminescence | LAI | 0.000017 µM
Cc1cn([C@@H]2O[C@@H]3CN[C@@]4(OCCOc5ccccc5)CS(=O)(=O)O[C@@]34[C@H]2O[Si](C)(C)C(C)(C)C)c(=O)[nH]c1=O | MT-4 |  |  | IIIB | >5 µM
Cc1cccnc1CN(CCCCN)Cc1nccc2ccccc12 | U87.CD4.CXCR4 |  | entry / luminescence |  | 0.93 µM
CC(C)C1=C2[C@H]3CC[C@@H]4[C@@]5(C)CC[C@H](OC(=O)[C@H]6C[C@@H](C(=O)O)C6(C)C)C(C)(C)[C@@H]5CC[C@@]4(C)[C@]3(C)CC[C@@]2(CC(=O)NCc2ccc3ccccc3n2)CC1=O | MT-2 |  | p24 / ELISA | 92HT599 | <1 µM
Cc1cn([C@H]2C[C@@H](OCP(=O)(O)O)CO2)c(=O)[nH]c1=O | MT-4 |  | MTT / absorbance | IIIB | 27.07 µM
CCN1CCC[C@H]1CNc1cc(S(=O)(=O)N(CC(C)C)C[C@@H](O)[C@H](Cc2ccccc2)NC(=O)O[C@H]2CO[C@H]3OCC[C@H]32)ccc1N | MT-4 |  | GFP | IIIB WT | 0.126 µM
CC(C)=CCOc1cc(NC(=S)c2ccoc2C)ccc1Cl | CEMx174 + CEM |  | cytopathic effect / XTT | IIIB | 0.01 µM
CCC[C@@]1(CCc2ccccc2)CC(O)=C([C@H](CC)c2cccc(NS(=O)(=O)c3ccc(C(F)(F)F)cn3)c2)C(=O)O1 | MT-4 | V32I L76V | reporter gene | T13436 | 180 nM
COc1ncc(OC)c2c(C(=O)C(=O)N3CCC(=C(C(N)=O)c4ccccc4)CC3)c[nH]c12 | HeLa |  | luciferase |  | <1 µM
CC(C)C1=C2[C@H]3CC[C@@H]4[C@@]5(C)CC[C@H](OC(=O)[C@H]6C[C@@H](C(=O)O)C6(C)C)C(C)(C)[C@@H]5CC[C@@]4(C)[C@]3(C)CC[C@@]2([C@@H](O)CNCC(C)(C)NC(=O)c2nc3ccccc3[nH]2)CC1=O | MT-2 |  | p24 / ELISA | 92HT599 | <1 µM
COc1cnc(-c2ccc(S(N)(=O)=O)cc2)c2[nH]cc(C(=O)C(=O)N3CCC(=C(C#N)c4ccccc4)CC3)c12 | HeLa |  | luciferase |  | <1 µM
Nc1ncnc2c1ccn2/C=C/[C@H](CO)OCP(=O)(O)O | MT-4 |  | MTT / absorbance | IIIB | >398 µM
Cc1c(-c2c(C(OC(C)(C)C)C(=O)O)n(C)c(=O)c3c2ccn3Cc2ccccc2)ccc2c1CCCO2 | MT-4 |  | MTS | IIIB | 1.36 µM
CC(C)C1=C2[C@H]3CC[C@@H]4[C@@]5(C)CC[C@H](OC(=O)[C@H]6C[C@@H](C(=O)O)C6(C)C)C(C)(C)[C@@H]5CC[C@@]4(C)[C@]3(C)CC[C@@]2(CC(=O)NCC(C)(C)NC(=O)c2ccc(Cl)cc2OCCN2CCCCC2)CC1=O | MT-2 |  | p24 / ELISA | 92HT599 | <1 µM
CC1CC(C)CN(S(=O)(=O)c2ccccc2[N+](=O)[O-])C1 | HeLa |  | GFP / fluorescence | 14AG | 0.16 µM
CC(C)CN(C[C@@H](O)[C@H](Cc1ccccc1)NC(=O)O[C@H]1CO[C@H]2OCC[C@H]21)S(=O)(=O)c1ccc(N)c(N(C)c2ccccc2)c1 | MT-4 |  | GFP | IIIB WT | 0.0871 µM
O=C(O)C(=O)N1CCC2(CC1)OCCn1c2nc(C(=O)NCc2ccc(F)cc2)c(O)c1=O | MT-2 |  | luciferase / reporter gene | NL4-3 | ≥0.1 µM
Nc1nc(NC2CC2)c2ncn([C@H]3C[C@@H](OCP(=O)(O)O)CO3)c2n1 | MT-4 |  | MTT / absorbance | IIIB | >338 µM
CC(C)C1=C2[C@H]3CC[C@@H]4[C@@]5(C)CC[C@H](OC(=O)[C@H]6C[C@@H](C(=O)O)C6(C)C)C(C)(C)[C@@H]5CC[C@@]4(C)[C@]3(C)CC[C@@]2(CCNCc2ccc(CN3CCOCC3)cc2)CC1=O | MT-2 |  | p24 / ELISA | 92HT599 | <1 µM
CC(C)CN(C[C@@H](O)[C@H](Cc1ccccc1)NC(=O)O[C@H]1CO[C@H]2OCC[C@H]21)S(=O)(=O)c1ccc(N)c(NCc2ccccc2)c1 | MT-4 |  | GFP | IIIB WT | 0.0038 µM
CCCCCO[C@]12CS(=O)(=O)O[C@@]13[C@@H](CN2)O[C@@H](n1cc(C)c(=O)[nH]c1=O)[C@@H]3O[Si](C)(C)C(C)(C)C | MT-4 |  |  | IIIB | >5 µM
Cc1nc2ccccc2c(-c2cc(F)c3c(c2C)CCCO3)c1[C@H](OC(C)(C)C)C(=O)O | MT-4 | T125A | luminescence | NL4-3 | 0.028 µM
CO[C@]12CS(=O)(=O)O[C@@]13[C@@H](CN2)O[C@@H](n1cc(C)c(=O)[nH]c1=O)[C@@H]3O | CEM |  |  | IIIB | 35 µM
COc1cccc(C(=C2CCN(C(=O)C(=O)c3c[nH]c4c(OC)ncc(OC)c34)CC2)c2ccccc2)c1 | HeLa |  | luciferase |  | <1 µM
Cc1cn([C@@H]2O[C@@H]3CN[C@@]4(O)CS(=O)(=O)O[C@@]34[C@H]2O[Si](C)(C)C(C)(C)C)c(=O)[nH]c1=O | CEM |  |  | IIIB | >250 µM
CC(C)=CCOc1cc(NC(=S)c2ccsc2C)ccc1Cl | CEM + CEM-SS | RT-L74V | cytopathic effect / XTT | NL4-3 (RT L74V) | 0.006 µM
Cc1cn([C@@H]2O[C@@H]3CN[C@H]4CS(=O)(=O)O[C@]43[C@H]2O[Si](C)(C)C(C)(C)C)c(=O)[nH]c1=O | MT-4 |  |  | IIIB | 30.4 µM
CC(C)CN(C[C@@H](O)[C@H](Cc1ccccc1)NC(=O)O[C@H]1CO[C@H]2OCC[C@H]21)S(=O)(=O)c1ccc(N)c(NCCN2CCCCC2)c1 | MT-4 |  | GFP | IIIB WT | 0.0195 µM
Cc1cccnc1CN(CCCCN)Cc1nccc2cc(F)ccc12 | Jurkat cells |  | flow cytometry |  | 0.00064 µM
Cc1ccc(F)cc1S(=O)(=O)N1CCC2(CC1)OCCn1c2nc(C(=O)NCc2ccc(F)cc2-n2ncnc2C)c(O)c1=O | MT-2 |  | luciferase / reporter gene | NL4-3 | 0.001–0.01 µM
CCCOC(=O)[C@H](Cc1ccccc1)NP(=O)(CO[C@H]1CO[C@@H](n2cc(F)c(=O)[nH]c2=O)C1)N[C@@H](Cc1ccccc1)C(=O)OCCC | MT-4 |  | MTT / absorbance | IIIB | >64 µM
CCO[C@]12CS(=O)(=O)O[C@@]13C(CN2)O[C@@H](n1cc(C)c(=O)n(C)c1=O)[C@@H]3O[Si](C)(C)C(C)(C)C | CEM |  |  | IIIB | 3 µM
CCOC(=O)C[C@H]1[C@@H](O[Si](C)(C)C(C)(C)C)[C@H](n2cnc3c(NC(=O)Nc4ccccc4)ncnc32)O[C@@H]1CNC(=O)NC | MT-2 |  | cytopathic effect / neutral red | LAI | >13 µM

Repeating the final 6 entries:

SMILES,cells,changes,method,strain,result
CC(C)CN(C[C@@H](O)[C@H](Cc1ccccc1)NC(=O)O[C@H]1CO[C@H]2OCC[C@H]21)S(=O)(=O)c1ccc(N)c(NCCN2CCCCC2)c1,MT-4,,GFP,IIIB WT,0.0195 µM
Cc1cccnc1CN(CCCCN)Cc1nccc2cc(F)ccc12,Jurkat cells,,flow cytometry,,0.00064 µM
Cc1ccc(F)cc1S(=O)(=O)N1CCC2(CC1)OCCn1c2nc(C(=O)NCc2ccc(F)cc2-n2ncnc2C)c(O)c1=O,MT-2,,luciferase / reporter gene,NL4-3,0.001–0.01 µM
CCCOC(=O)[C@H](Cc1ccccc1)NP(=O)(CO[C@H]1CO[C@@H](n2cc(F)c(=O)[nH]c2=O)C1)N[C@@H](Cc1ccccc1)C(=O)OCCC,MT-4,,MTT / absorbance,IIIB,>64 µM
CCO[C@]12CS(=O)(=O)O[C@@]13C(CN2)O[C@@H](n1cc(C)c(=O)n(C)c1=O)[C@@H]3O[Si](C)(C)C(C)(C)C,CEM,,,IIIB,3 µM
CCOC(=O)C[C@H]1[C@@H](O[Si](C)(C)C(C)(C)C)[C@H](n2cnc3c(NC(=O)Nc4ccccc4)ncnc32)O[C@@H]1CNC(=O)NC,MT-2,,cytopathic effect / neutral red,LAI,>13 µM